Anti-infective test results gathered from many reports (values: NIAID ChemDB through PubChem).

Shared fields: whole-cell or culture tests

Two numbers with a dash give a range or band.

SMILES	organism	strain	method	conditions	measure	dose	value
C[C@@H](c1ncncc1F)[C@](O)(Cn1cncn1)c1ccc(F)cc1F	Candida glabrata	40 isolates	broth dilution	pH 5	EC90	-	>16 µg/mL
C[C@@H]1CC(=O)N(c2ccc(F)cc2F)C1=O	Candida lusitaniae	CCC 134-2000	broth dilution / turbidity	-	MIC	-	125 µg/mL
CC(=NNC(=O)c1snnc1C(F)(F)F)c1ccccn1	Candida rugosa	NCIM 3462	agar diffusion / agar	-	zone	150 µg/mL	0 mm
NC(=NC1CCCC1)c1ccc(-c2ccc(-c3ccc(C(N)=NC4CCCC4)cc3)o2)cc1	Candida albicans	Isolate CA1247	-	-	MFC	-	50 µg/mL
Nc1[nH]c(=O)ncc1F	Candida glabrata	40 isolates	broth dilution	pH 5	EC90	-	0.125 µg/mL
CC(=O)OC[C@H]1O[C@@H](O[C@@H]2[C@@H](N=[N+]=[N-])[C@H](O)[C@H](O)[C@H]3OC(C)(C)O[C@H]32)[C@H](OC(C)=O)[C@@H](OC(C)=O)[C@H]1OC(C)=O	Candida tropicalis	C 131	broth dilution / turbidity	-	inhibition	125 µg/mL	17.82%
C[C@@H](N1CCN(Cc2cn(Cc3ccc(C(F)(F)F)cc3)c3cc(Cl)ccc23)CC1)[C@](O)(Cn1cncn1)c1ccc(F)cc1F	Candida albicans	ATCC MYA-1003	resazurin	-	MIC80	-	>128 µg/mL
O=C(CCn1ccnc1)c1ccc2ccccc2c1	Candida guilliermondii	RTCC1248	broth dilution	-	MIC	-	64 µg/mL
O=C1C2=C(OC(CI)C2)C(=O)c2ccccc21	Candida tropicalis	Clinical isolate	broth dilution	-	MIC	-	37.3 µg/mL
COc1ccc(C=NNC(=O)c2snnc2C(F)(F)F)cc1	Candida rugosa	NCIM 3462	agar diffusion / agar	-	zone	150 µg/mL	0 mm
CC(C)(O)c1cn(-c2ccc3ccccc3c2)nn1	Candida parapsilosis	URM 4889	broth dilution	-	inhibition	2048 µg/mL	0%
CCCCCOc1ccc(-c2cc(-c3ccc(C(=O)N[C@H]4C[C@@H](O)[C@@H](O)NC(=O)[C@@H]5[C@@H](O)[C@@H](C)CN5C(=O)[C@H]([C@H](O)CC(N)=O)NC(=O)[C@H]([C@H](O)[C@@H](O)c5ccc(O)c(OS(=O)(=O)O)c5)NC(=O)[C@@H]5C[C@@H](O)CN5C(=O)[C@H]([C@@H](C)O)NC4=O)cc3)no2)cc1	Candida albicans	Fluconazole-resistant 4 isolates pooled	-	-	MFC50	-	0.0313 µg/mL
CC(C)(O)c1cn(-c2cccc3ccccc23)nn1	Candida albicans	URM 4817	broth dilution	-	inhibition	2048 µg/mL	0%
c1ccc(C(c2ccccc2)n2nnc3ccccc32)cc1	Candida parapsilosis	-	agar	-	MIC90	-	>256 µg/mL
O=C(NN=C1CCCCCC1)c1snnc1C(F)(F)F	Candida rugosa	NCIM 3462	agar diffusion / agar	-	zone	150 µg/mL	0 mm
COc1ccc(/C=N\O)cc1	Candida famata	-	broth dilution	-	MFC	-	6620 µM
OB1OCc2cc(F)ccc21	Candida tenuis	-	turbidity	-	MFC	-	0.9 µg/mL
O=C(O)c1ccc(C[C@H](C(=O)O)[C@@H](O)C(=O)O)cc1	Candida dubliniensis	CBS 7987	-	-	MIC	-	2 µg/mL
O/N=C\c1ccccc1	Candida lipolytica	-	-	-	MIC	-	4130 µM
CCC(C)n1ncn(-c2ccc(N3CCN(c4ccc(OC[C@H]5CO[C@](Cn6cncn6)(c6ccc(Cl)cc6Cl)O5)cc4)CC3)cc2)c1=O	Candida dubliniensis	-	broth dilution	-	MIC50	-	0.016 µg/mL
CC(=O)c1ccc(B(O)O)cc1	Candida tenuis	-	turbidity	-	MFC	-	31.2 µg/mL
CC(C)=NNC(=O)c1snnc1C(F)(F)F	Candida rugosa	NCIM 3462	agar diffusion / agar	-	zone	150 µg/mL	0 mm
C[C@@H](c1ncncc1F)[C@](O)(Cn1cncn1)c1ccc(F)cc1F	Candida guilliermondii	-	-	-	MIC50	-	0.008–2 µg/mL
O=C(c1ccccc1)C(c1ccccc1)n1nnc2ccccc21	Candida dubliniensis	-	broth dilution	-	MFC	-	>256 µg/mL
OB1OC(N2CCN(C3OB(O)c4ccccc43)CC2)c2ccccc21	Candida tenuis	-	turbidity	-	MIC	-	<0.9 µg/mL
O/N=C\c1ccc(O)cc1	Candida lipolytica	-	broth dilution	-	MIC100	-	>7290 µM
CC(O)Cn1cc(CN2CCN([C@H](C)[C@](O)(Cn3cncn3)c3ccc(F)cc3F)CC2)c2cccc(Cl)c21	Candida albicans	ATCC 36082	resazurin	-	MIC80	-	1 µg/mL
CC(C)(O)c1cn(-c2ccc([N+](=O)[O-])cc2)nn1	Candida parapsilosis	URM 3624	broth dilution	-	inhibition	2048 µg/mL	0%
O=C(CCn1ccnc1)c1ccc(-c2ccccc2)cc1	Candida kefyr	RTCC 1074	broth dilution	-	MIC	-	2 µg/mL
O=C(c1ccccc1)C(c1ccccc1)n1ccnc1	Candida parapsilosis	-	broth dilution	-	MFC	-	>256 µg/mL
O=C(NN=Cc1ccccc1)c1snnc1C(F)(F)F	Candida rugosa	NCIM 3462	agar diffusion / agar	-	zone	100 µg/mL	0 mm
C[C@@H](N1CCN(Cc2cn(Cc3ccc(F)cc3F)c3c(F)cccc23)CC1)[C@](O)(Cn1cncn1)c1ccc(F)cc1F	Candida albicans	ATCC 36082	resazurin	-	MIC80	-	0.125 µg/mL
Clc1ccccc1C(c1ccccc1)(c1ccccc1)n1ccnc1	Candida glabrata	40 isolates	broth dilution	pH 4	EC90	-	>16 µg/mL
CC(=NNC(=O)c1snnc1C(F)(F)F)c1ccc(Br)cc1Br	Candida rugosa	NCIM 3462	agar diffusion / agar	-	zone	150 µg/mL	0 mm
Nc1ncccc1-c1cc(Cc2ccc(COc3ccccn3)cc2)no1	Candida lusitaniae	-	broth dilution	-	MIC	-	0.06 µg/mL
CCC(C)CC(C)CCCCCCCCC(=O)N[C@H]1C[C@@H](O)[C@H](NCCN)NC(=O)[C@@H]2[C@@H](O)CCN2C(=O)[C@H]([C@H](O)CCN)NC(=O)[C@H]([C@H](O)[C@@H](O)c2ccc(O)cc2)NC(=O)[C@@H]2C[C@@H](O)CN2C(=O)[C@H]([C@@H](C)O)NC1=O	Candida tropicalis	8664	broth dilution	-	MIC	-	1 µg/mL
OC(CCn1ccnc1)c1cccc(C(O)c2ccc(Cl)cc2)c1	Candida guilliermondii	RTCC 1377	broth dilution	-	MIC	-	>64 µg/mL
OB(O)c1ccccc1	Candida tenuis	-	turbidity	-	MIC	-	62.5 µg/mL
C[C@@H](N1CCN(Cc2cn(Cc3ccc(F)cc3)c3c(Cl)cccc23)CC1)[C@](O)(Cn1cncn1)c1ccc(F)cc1F	Candida albicans	ATCC 36082	resazurin	-	MIC80	-	4 µg/mL
CC1CC(=O)N(CCCc2ccccc2)C1=O	Candida lusitaniae	CCC 134-2000	broth dilution / turbidity	-	MIC	-	125 µg/mL
Cc1ccc(-n2cc(C(C)(C)O)nn2)cc1C	Candida albicans	URM 3719	broth dilution	-	inhibition	2048 µg/mL	0%
O=[N+]([O-])c1ccc(/C=N\O)cc1	Candida famata	-	-	-	MIC	-	3010 µM
CC[C@@H]([C@H](C)O)n1ncn(-c2ccc(N3CCN(c4ccc(OC[C@@H]5CO[C@@](Cn6cncn6)(c6ccc(F)cc6F)C5)cc4)CC3)cc2)c1=O	Candida glabrata	8653	broth dilution	-	MIC	-	0.5 µg/mL
COc1ccc(C(c2ccc(OC)cc2)n2cncn2)cc1	Candida parapsilosis	-	agar	-	MIC90	-	>256 µg/mL
C=CCc1ccc(OC)c(OC)c1	Candida albicans	2357	turbidity	-	MIC90	-	350 µg/mL
O/N=C\c1ccc(F)cc1	Candida lipolytica	-	-	-	MIC100	-	7200 µM
CC1CC(=O)N(CCCCc2ccccc2)C1=O	Candida lusitaniae	CCC 134-2000	broth dilution / turbidity	-	MIC	-	125 µg/mL
CCCCCOc1ccc(-c2cc(-c3ccc(C(=O)N[C@H]4C[C@@H](O)[C@@H](O)NC(=O)[C@@H]5[C@@H](O)[C@@H](C)CN5C(=O)[C@H]([C@H](O)CC(N)=O)NC(=O)[C@H]([C@H](O)[C@@H](O)c5ccc(O)c(OS(=O)(=O)O)c5)NC(=O)[C@@H]5C[C@@H](O)CN5C(=O)[C@H]([C@@H](C)O)NC4=O)cc3)no2)cc1	Candida lusitaniae	-	-	-	MIC50	-	0.008–2 µg/mL
Clc1ccc(C(c2ccccc2)n2ccnc2)cc1	Candida glabrata	-	broth dilution	-	MFC	-	2 µg/mL
C/C(=N/O)C(Cl)(Cl)Cl	Candida lipolytica	-	-	-	MIC	-	3220 µM
CCC(C)CC(C)CCCCCCCCC(=O)N[C@H]1C[C@@H](O)[C@H](NCCN)NC(=O)[C@@H]2[C@@H](O)CCN2C(=O)[C@H]([C@H](O)CCN)NC(=O)[C@H]([C@H](O)[C@@H](O)c2ccc(O)cc2)NC(=O)[C@@H]2C[C@@H](O)CN2C(=O)[C@H]([C@@H](C)O)NC1=O	Candida albicans	10 isolates	broth dilution	pH 5	EC90	-	0.06 µg/mL
O=C(CCn1ccnc1)c1ccc(Br)cc1	Candida guilliermondii	RTCC1248	broth dilution	-	MIC	-	32 µg/mL
COc1ccc(C(c2ccc(OC)cc2)n2ccnc2)cc1	Candida parapsilosis	-	agar	-	MIC90	-	>256 µg/mL
C[C@@H]1C(=O)N(Cc2ccccc2)C(=O)[C@@H]1C	Candida lusitaniae	CCC 134-2000	broth dilution / turbidity	-	MIC	-	62.5 µg/mL
O=C(CCn1ccnc1)c1cccc(C(O)c2ccc(Cl)cc2)c1	Candida guilliermondii	RTCC 1377	broth dilution	-	MIC	-	8 µg/mL

Percent inhibition refers to the dose given; in toxicity tests it is the harm to the cells. Zone: diameter of growth inhibition. Neighbouring rows are from separate reports. Blank or dashed fields: not listed here. A number after MIC or MFC names an inhibition level or a share of isolates. ECn is the concentration giving n% inhibition of infection, replication or growth.